Experimental data: PMC11945750, “Structural and Energetic Evidence Supports the Non-Covalent Phosphate Cyclization by the Class II Phospholipase D from Loxosceles intermedia” (2025)

The chains behind the UniProt entries cited, without tags or fusion partners. Residues count along the entry.
UniProt P0CE80, 27-306 limits assumed: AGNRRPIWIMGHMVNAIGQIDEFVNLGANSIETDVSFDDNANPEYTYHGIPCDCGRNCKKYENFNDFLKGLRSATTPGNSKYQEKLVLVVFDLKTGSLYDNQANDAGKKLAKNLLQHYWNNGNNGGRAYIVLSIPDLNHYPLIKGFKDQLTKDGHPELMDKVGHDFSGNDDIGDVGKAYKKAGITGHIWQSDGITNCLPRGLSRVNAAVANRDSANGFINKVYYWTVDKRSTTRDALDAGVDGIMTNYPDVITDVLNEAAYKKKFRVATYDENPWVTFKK

Target: Loxosceles intermedia PLD (class II phospholipase D) (Loxosceles intermedia, UniProt P0CE80)
Experiment: X-ray crystal structure (re-refinement of 3RLH data)
Details: active site, Mg2+ bound; crystallisation pH 7.5; ligand assigned from electron density in place of PEG4, two conformations

Structure (SMILES): NC1(CO)COP(=O)(O)OC1 (stereo not shown)
- X-ray crystal structure (re-refinement of 3RLH data): The newly positioned ligand at the active site is a known compound
